Results of unrelated studies side by side (data: NIAID ChemDB).

All rows: growth or infection tests; organism: Plasmodium falciparum; measure: EC50

An empty or dashed field is not shown. Conditions beyond the fields shown may differ between rows. ECn: concentration that inhibits the pathogen or its effect by n%.

{"structure": "COc1cc(OC)c(C=C2SC(=O)N(CC(=O)N3CCNCC3)C2=O)c(OC)c1", "strain or isolate": "W2", "changes": "Chloroquine-resistant", "method": "fluorescence", "value": "5.28 µM"}
{"structure": "COc1ccc2nccc([C@@H](O)C3CC4CCN3CC4/C=C/c3ccc4ccccc4c3)c2c1", "strain or isolate": "Dd2", "value": ">0.5 µM"}
{"structure": "C/C=C1/CN2CCC34c5ccccc5N5C=C6[C@H]7C[C@@H]8N(CCC89c8ccccc8N(C=C([C@H]1C[C@H]23)[C@H]54)[C@@H]69)C/C7=C/C", "strain or isolate": "W2", "value": "0.303 µg/mL"}
{"structure": "CCN(CC)CCCC(C)Nc1ccnc2cc(Cl)ccc12", "strain or isolate": "D6", "value": "0.05 µM"}
{"structure": "CN1CCc2cc3c(cc2[C@H]1[C@H]1OC(=O)c2c1ccc1c2OCO1)OCO3", "strain or isolate": "TM4/8.2", "value": ">10 µg/mL"}
{"structure": "C=C1CN2CCC34c5ccccc5N5C=C([C@H]6CC7C8=C(CCN7C/C6=C/C)C6C=CC=CC6N8)[C@@H](O)[C@@H]([C@H]53)[C@H]1C[C@]24O", "strain or isolate": "W2", "value": "12.8 µg/mL"}
{"structure": "COc1cc(OC)c(C=C2SC(=O)NC2=O)c(OC)c1", "strain or isolate": "W2", "changes": "Chloroquine-resistant", "method": "fluorescence", "value": ">10 µM"}
{"structure": "Cc1cccc(OCCNC(=O)c2cc3ccccc3cc2O)c1", "strain or isolate": "Dd2", "value": "8.4 µM"}
{"structure": "CN1CCc2cc3c(cc2C(=O)Cc2ccc4c(c2C1)OCO4)OCO3", "strain or isolate": "TM4/8.2", "value": "1.45 µg/mL"}
{"structure": "Cc1cccc(OCCNC(=O)c2ccncc2Cl)c1", "strain or isolate": "Dd2", "value": ">50 µM"}
{"structure": "CCN(CC)CCCC(C)Nc1ccnc2cc(Cl)ccc12", "strain or isolate": "W2", "method": "LDH / absorbance", "value": "0.35 µg/mL"}
{"structure": "COc1cc2c(cc1OC)CN(Cc1ccc(O)cc1)CC2", "strain or isolate": "K1CB1", "value": ">20 µg/mL"}
{"structure": "OCCCCNc1nc(NCCNc2ccnc3cc(Cl)ccc23)nc(N2CCCCC2)n1", "strain or isolate": "D6", "value": "0.14 µM"}
{"structure": "C[C@@H]1CC[C@H]2[C@@H](C)C(=O)O[C@@H]3OC4(C)CC[C@@H]1[C@]32OO4", "strain or isolate": "Dd2 (CM1)", "changes": "Multidrug-resistant", "method": "SYBR Green / fluorescence", "value": "0.0209 µM"}
{"structure": "OCCCCNc1nc(NCCNc2ccnc3cc(Cl)ccc23)nc(N2CCOCC2)n1", "strain or isolate": "D6", "value": "0.48 µM"}
{"structure": "C[C@H]1[C@@H](OC(=O)CCC(=O)O)O[C@@H]2O[C@@]3(C)CC[C@H]4[C@H](C)CC[C@@H]1[C@@]24OO3", "strain or isolate": "W2", "changes": "Chloroquine-resistant", "method": "fluorescence", "value": "0.019 µM"}
{"structure": "Cc1cccc(OCCNC(=O)c2cccnc2Cl)c1", "strain or isolate": "Dd2", "value": ">50 µM"}
{"structure": "COc1cc(OC)c(C=C2SC(=O)N(Cc3ccccc3)C2=O)c(OC)c1", "strain or isolate": "W2", "changes": "Chloroquine-resistant", "method": "fluorescence", "value": ">10 µM"}
{"structure": "OCCCNc1nc(NCCCCNc2ccnc3cc(Cl)ccc23)nc(N2CCOCC2)n1", "strain or isolate": "W2", "value": "0.57 µM"}
{"structure": "Cc1cccc(OCCNC(=O)c2ccc(N)cc2Cl)c1", "strain or isolate": "Dd2", "value": "10.5 µM"}
{"structure": "C[C@@H]1CC[C@H]2[C@@H](C)C(=O)O[C@@H]3OC4(C)CC[C@@H]1[C@]32OO4", "strain or isolate": "D6", "value": "0.015 µM"}
{"structure": "Cc1cccc(NCC(=O)NNCc2ccccc2)c1", "strain or isolate": "Dd2", "value": ">50 µM"}
{"structure": "C/C=C1/CC2CCC3=C(Cc4ccccc43)C2C[C@@H]1C1=CN2c3ccccc3C34CCN5C/C(=C/O)[C@H](C[C@H]53)[C@@H]([C@@H]1O)[C@H]24", "strain or isolate": "3D7", "value": "0.698 µg/mL"}
{"structure": "OCCCNc1nc(NCCNc2ccnc3cc(Cl)ccc23)nc(N2CCCCC2)n1", "strain or isolate": "D6", "value": "0.21 µM"}

Repeating the final 3 entries:

structure	strain or isolate	changes	method	value
Cc1cccc(NCC(=O)NNCc2ccccc2)c1	Dd2			>50 µM
C/C=C1/CC2CCC3=C(Cc4ccccc43)C2C[C@@H]1C1=CN2c3ccccc3C34CCN5C/C(=C/O)[C@H](C[C@H]53)[C@@H]([C@@H]1O)[C@H]24	3D7			0.698 µg/mL
OCCCNc1nc(NCCNc2ccnc3cc(Cl)ccc23)nc(N2CCCCC2)n1	D6			0.21 µM